PubChem BioAssay AID504761 – Drosophila RNAi Screening Center – 2011
Purpose: 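Genome-wide fly cell screen for genes dengue virus requires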 (primary screen). System: D.Mel-2 cells from Drosophila. Reagent: long dsRNA against Drosophila genes. Treatment: infection with dengue virus type 2; dose and infection time not stated. Detection: 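Per well on two replicate plates, imaging gave the percent of cells positive for viral envelope protein, ranked by infection, and a nuclear count of cells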. Direction: infection score: higher = more virus-infected cells; cell count: higher = more cells in the well. Active means: 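Very low infection ranking in both replicate wells (chance probability at most 0.065), then a retest showing infection dropped 1.5-fold or more at p below 0.05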. Calls: active = confirmed: knock-down lowers infection; inactive = not picked or not confirmed.
The screen tested about 22,000 reagents; this is a random part of those that have a named target and a result. Of all reagents, 116 (0.52%) got an active call. 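Calls depend on retest data that are not deposited; infection was ranked per plate without normalising between plates; the unit of the infection score is not given.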 Raw values are not corrected between plates. Entries without a mark were called inactive. A plus sign joins genes that one reagent is predicted to hit. Not all columns of the deposit are shown. The record does not give: the amount of reagent, the time to read-out.

| target | amplicon | infection score, replicate 1 | infection score, replicate 2 | cell count, replicate 1 |
| --- | --- | --- | --- | --- |
| Pex3 (Peroxin 3) | DRSC10731 | 5.91 | 6.35 | 1744 |
| CG6865 | DRSC10732 | 4.77 | 5.25 | 6966 |
| CG33468 | DRSC22940 | 0.93 | 5.72 | 6327 |
| CG18335 | DRSC06723 | 9.11 | 7.42 | 2438 |
| CG18335 | DRSC29997 | 19.1 | 9.34 | 5829 |
| CG32055 | DRSC10666 | 15.6 | 17.4 | 5537 |
| CG17816 | DRSC15277 | 0.88 | 2.26 | 6794 |
| CG17816 | DRSC29783 | 3.33 | 4.62 | 6329 |
| mor (moira) | DRSC15378 | 4.32 | 4.64 | 5376 |
| mor (moira) | DRSC27980 | 4.38 | 7.32 | 4698 |
| CG32259 | DRSC08082 | 3.2 | 6.81 | 6321 |
| Scm (Sex comb on midleg) | DRSC16853 | 4.6 | 5.25 | 6061 |
| CG1233 | DRSC08269 | 8.49 | 4.89 | 6246 |
| CG1233 | DRSC26110 | 16.5 | 8.93 | 5613 |
| mRpL32 (mitochondrial ribosomal protein L32) | DRSC14479 | 19.2 | – | 5921 |
| Gr92a (Gustatory receptor 92a) | DRSC21631 | 0.65 | 1.3 | 6172 |
| CG3999 | DRSC15534 | 9.83 | 7.18 | 6833 |
| CG3999 | DRSC29444 | 25.1 | 21.8 | 4358 |
| Pld (Phospholipase D) | DRSC04854 | 34.9 | 12.6 | 5268 |
| Pld (Phospholipase D) | DRSC24641 | 3.76 | 3.37 | 6109 |
| conu (conundrum) | DRSC07810 | 3.25 | 3.17 | 6089 |
| hlk (hulk) | DRSC05021 | 4.96 | 12 | 6599 |
| hlk (hulk) | DRSC05022 | 18.2 | 16.3 | 6058 |
| hlk (hulk) | DRSC26150 | 5.12 | 2.37 | 6364 |
| Cyp6a18 (Cytochrome P450 6a18) | DRSC16632 | 0.85 | 2.38 | 6668 |
| Jhbp1 (Juvenile hormone binding protein 1) | DRSC12167 | 6.34 | 11.6 | 6686 |
| Jhbp1 (Juvenile hormone binding protein 1) | DRSC26183 | 6.16 | 13.4 | 3573 |
| RpL41 (Ribosomal protein L41) | DRSC22958 | 1.05 | 2.87 | 6643 |
| L (Lobe) | DRSC06666 | 9.14 | 5.77 | 6333 |
| L (Lobe) | DRSC06668 | 24.4 | 3.88 | 5174 |
| L (Lobe) | DRSC29770 | 6.85 | 13.9 | 6832 |
| CG17376 | DRSC21717 | 5.68 | 11.2 | 6765 |
| Sym (Symplekin) | DRSC12301 | 6.2 | 4.52 | 5544 |
| Sym (Symplekin) | DRSC29255 | 7.62 | 13.8 | 998 |
| CG15916 | DRSC19740 | 18.4 | 5 | 5970 |
| HINT1 (histidine triad nucleotide binding protein 1) | DRSC26502 | 4.5 | 2.61 | 6179 |
| CG6040 | DRSC15954 | 1.49 | 4.27 | 6790 |
| CG6040 | DRSC26100 | 11.8 | 5.92 | 5830 |
| GstE5 (Glutathione S transferase E5) | DRSC06675 | 1.15 | 0.53 | 6423 |
| CG42296 | DRSC00394 | 20 | 8.27 | 6911 |
| Vinc (Vinculin) | DRSC18728 | 14.7 | 2.03 | 1543 |
| CG17025 (retired record) | DRSC28651 | 7.55 | 16.4 | 6248 |
| Ilp7 (Insulin-like peptide 7) | DRSC17895 | 5.99 | 12.2 | 6307 |
| Ssu72 (Ssu72 CTD phosphatase) | DRSC19572 | 2.98 | 1.57 | 6066 |
| Ssu72 (Ssu72 CTD phosphatase) | DRSC27868 | 8.74 | 31.2 | 6136 |
| obst-G (obstructor-G) | DRSC11103 | 3.12 | 4.08 | 5993 |
| RpLP0 (Ribosomal protein LP0) | DRSC11878 | 10.3 | 17 | 6055 |
| RpLP0 (Ribosomal protein LP0) | DRSC22110 | 5.37 | 3.94 | 1042 |
| hts (hu li tai shao) | DRSC07629 | 1.06 | 1.79 | 6410 |
| hts (hu li tai shao) | DRSC28097 | 23 | 20.7 | 5614 |
| CG43345 | DRSC03164 | 11.4 | 24.5 | 6030 |
| CG15572 | DRSC24999 | 1.33 | 2.97 | 6626 |
| santa-maria | DRSC00994 | 0.96 | 0.35 | 5966 |
| santa-maria | DRSC02180 | 8.57 | 1.72 | 6184 |
| CG42383 | DRSC21733 | 4.86 | 15.7 | 6343 |
| CG14273 | DRSC02377 | 5.89 | 12.6 | 5856 |
| CG14273 | DRSC27247 | 32.3 | 14.9 | 5741 |
| CG15332 | DRSC18015 | 1.59 | 2.07 | 6270 |
| CG15332 | DRSC25660 | 7.17 | 5.65 | 6210 |
| AP-2mu (Adaptor Protein complex 2, mu subunit) | DRSC14090 | 1.91 | 0.61 | 5616 |
| AP-2mu (Adaptor Protein complex 2, mu subunit) | DRSC28264 | 4.58 | 4.29 | 6196 |
| CG8135 + BBIP1 | DRSC12739 | 2.22 | 2.34 | 5715 |
| CG8135 + BBIP1 | DRSC16384 | 3.41 | 4.08 | 6457 |
| CG8135 + BBIP1 | DRSC26052 | 2.8 | 1.74 | 6777 |
| vimar (visceral mesodermal armadillo-repeats) | DRSC05026 | 20.1 | 18.8 | 7041 |
| topi (matotopetli) | DRSC16431 | 3.69 | 2.54 | 6072 |
| CG5800 | DRSC19962 | 6.66 | 18.9 | 6094 |
| CG5800 | DRSC28009 | 31.9 | 5.27 | 4954 |
| pic (piccolo) | DRSC16639 | 5.36 | 7.91 | 4011 |
| ValRS-m (Valyl-tRNA synthetase, mitochondrial) | DRSC10535 | 2.56 | 6.5 | 5742 |
| Pbp45 (PSEA-binding protein 45kD) | DRSC16509 | 7.95 | 5.62 | 6141 |
| Nlp (Nucleoplasmin) | DRSC16759 | 5.03 | 14.4 | 6580 |
| Nlp (Nucleoplasmin) | DRSC26421 | 1.87 | 1.31 | 6485 |
| Pvf1 (PDGF- and VEGF-related factor 1) | DRSC20024 | 1.36 | 2.85 | 6841 |

A portion taken from the entries so far, for reference:
| target | amplicon | infection score, replicate 1 | infection score, replicate 2 | cell count, replicate 1 |
| --- | --- | --- | --- | --- |
| CG3999 | DRSC29444 | 25.1 | 21.8 | 4358 |
| Pld (Phospholipase D) | DRSC04854 | 34.9 | 12.6 | 5268 |
| Pld (Phospholipase D) | DRSC24641 | 3.76 | 3.37 | 6109 |
| conu (conundrum) | DRSC07810 | 3.25 | 3.17 | 6089 |
